Each structure is given as a SMILES string.

The subject of this assay is AgrC-R238H (constitutively active) isolate AH3470. Description: AgrC constitutive reporter assay (rabbit RBC lysis), constitutively active AgrC. (In general: In a reporter assay the amount or activity of a reporter protein is the signal.)

For `O=C1c2cc(O)cc(O)c2C(=O)c2c(O)cc(CO)cc21` [OHM, 1,3,8-trihydroxy-6-(hydroxymethyl)anthracene-9,10-dione], the “agr-mediated Hla expression (lysis of rabbit RBCs)” value was “inhibited Hla expression”.
